Compound potency records, mixed from different reports. Data source: NIAID ChemDB in PubChem.

Shared fields: growth or infection tests; species: Staphylococcus aureus

MIC50, MIC90 and the like: level of inhibition, or share of isolates inhibited. Lines come from different laboratories, so protocols vary. Blank or dashed fields: not listed here. Two numbers with a dash give a range or band. Zone: diameter of growth inhibition.

structure	strain or isolate	read by	endpoint	dose	value
O=C(O)c1cn(C2CC2)c2cc(NCCCNC3CCCCC3)c(F)cc2c1=O	ATCC 5278 (methicillin-resistant)		MIC		>100 µg/mL
CCCCCCCCCCCC[N+](C)(C)COCCCCCCCCCCC	ATCC33592		MBC		115 µM
C[C@@H]1CN(c2c(F)c(N)c3c(=O)c(C(=O)O)cn(C4CC4)c3c2F)C[C@H](C)N1	Methicillin-resistant		MIC90		0.06–8 µg/mL
CCCCCCCCCCCCOC[N+](C)(C)CCCCCCCC	ATCC 6538		MBC		25.5 µM
CC(C)(C)n1cc(C(=O)O)c(=O)c2cc(F)c(N3C[C@H]4C[C@@H]3CN4)nc21	30 strains (methicillin-resistant)		MIC50		0.5 µg/mL
CCCCC(CO)Nc1cc2c(cc1F)c(=O)c(C(=O)O)cn2C1CC1	ATCC 5278 (methicillin-resistant)		MIC		>100 µg/mL
CC[C@H]1OC(=O)[C@H](C)C(=O)[C@H](C)[C@@H](O[C@@H]2O[C@H](C)C[C@H](N(C)C)[C@H]2O)[C@](C)(OC)C[C@@H](C)C(=O)[C@H](C)[C@H]2N(CCCCn3cnc(-c4cccnc4)c3)C(=O)O[C@]12C	25 strains		MIC50		0.125 µg/mL
COC(=O)[C@H](C)NC(=O)[C@H](Cc1ccc(O)cc1)NC(=O)[C@@H]1CCCN1C(=O)[C@H](CC(C)C)NC(=O)CNC(=O)[C@@H]1CCCN1C(=O)[C@H](CC(=O)O)NC(C)(C)C			zone	12.5 µg/mL	9 mm
Cc1cn(-c2ccc(N3C[C@H](CNc4ccon4)OC3=O)cc2F)cn1	122 (novobiocin-resistant)		MIC		0.5 µg/mL
Cc1c(N)c(F)cc2c(=O)c(C(=O)O)cn(-c3cc(N)c(F)cc3F)c12	27 isolates (methicillin-resistant)		Mean MIC		0.012 µg/mL
CC[C@H]1OC(=O)[C@H](C)C(=O)[C@H](C)[C@@H](O[C@@H]2O[C@H](C)C[C@H](N(C)C)[C@H]2O)[C@](C)(OC)C[C@@H](C)C(=O)[C@H](C)[C@H]2N(CCCCn3cnc(-c4cccnc4)c3)C(=O)O[C@]12C	25 strains		MIC50		1 µg/mL
CCCC[C@H](CC(=O)NO)C(=O)N[C@@H](CC(C)C)C(=O)Nc1ccc2ccccc2c1	25 strains		MIC90		4 µg/mL
CCCCCCCCCCCC[N+](C)(C)COC1CCCCC1	ATCC 6538		MIC		1.38 µM
CC1CN(c2cc3c(cc2F)c(=O)c(C(=O)O)cn3-c2ccc(F)cc2F)CCN1	ATCC 6538P		MIC		0.39 µg/mL
CCCCCCCCCCOC[N+](C)(C)CCCCCCCC	ATCC 6538		MBC		27.5 µM
CNc1c(F)cc2c(=O)c(C(=O)O)cn(-c3cc(N)c(F)cc3F)c2c1C	27 isolates (methicillin-resistant)		Mean MIC		0.009 µg/mL
O=C(O)c1cn(C2CC2)c2cc(NCCCCO)c(F)cc2c1=O	ATCC 6538P		MIC		>100 µg/mL
CCCCCCCCCCCC[N+](C)(C)COCCC	ATCC 6538		MBC		1.55 µM
CS(=O)(=O)N1CCN(c2ccc(N3C[C@H](COc4ccon4)OC3=O)cc2F)CC1	122 (novobiocin-resistant)		MIC		4 µg/mL
CCCCCCCCCCCC[N+](C)(C)COCC(CC)CCC	ATCC33592		MBC		12.8 µM
CC(C)(C)n1cc(C(=O)O)c(=O)c2cc(F)c(N3C[C@H]4C[C@@H]3CN4)nc21	44 strains (methicillin-resistant)		MIC50		0.25 µg/mL
NCCCCCNc1cc2c(cc1F)c(=O)c(C(=O)O)cn2C1CC1	ATCC 5278 (methicillin-resistant)		MIC		>100 µg/mL
CC[C@H]1OC(=O)[C@H](C)C(=O)[C@H](C)[C@@H](O[C@@H]2O[C@H](C)C[C@H](N(C)C)[C@H]2O)[C@@]2(C)C[C@@H](C)C(=NC(C)=O)[C@H](C)[C@@H](OC/C(=N\OCc3ccc(-n4cccn4)nc3)CO2)[C@]1(C)O	25 strains		MIC90		32 µg/mL
C=CCCCCCC(CCCCBr)CCCC(=O)NCCC=C	NCIM 2079	agar diffusion	zone	100 µg/disc	20 mm
C[C@H]1NCc2cc(-c3ccc4c(=O)c(C(=O)O)cn(C5CC5)c4c3OC(F)F)ccc21	A29030 (methicillin-resistant)		MBC		0.06 µg/mL
Cc1cn(-c2ccc(N3C[C@H](COc4ccon4)OC3=O)cc2F)cn1	004 (methicillin quinolone-resistant)		MIC		2 µg/mL
CCCCCCCCCOC[N+](C)(C)CCCCCCCC	ATCC 6538		MBC		2.86 µM
CO/N=C1\CN(c2nc3c(cc2F)c(=O)c(C(=O)O)cn3C2CC2)CC1CN	9 isolates (methicillin-susceptible)		MIC90		0.25 µg/mL
CCCCCCCCCCCC[N+](C)(C)CSCCCCCC	ATCC33592		MIC		13.1 µM
CCN(CC)CCNc1cc2c(cc1F)c(=O)c(C(=O)O)cn2C1CC1	ATCC 6538P		MIC		>100 µg/mL

A second listing of 4 rows from above:

CCCCC(CO)Nc1cc2c(cc1F)c(=O)c(C(=O)O)cn2C1CC1 ; strain or isolate: ATCC 5278 (methicillin-resistant) ; endpoint: MIC ; value: >100 µg/mL
CCCCCCCCCCCC[N+](C)(C)COCC(CC)CCC ; strain or isolate: ATCC33592 ; endpoint: MBC ; value: 12.8 µM
CCN(CC)CCNc1cc2c(cc1F)c(=O)c(C(=O)O)cn2C1CC1 ; strain or isolate: ATCC 6538P ; endpoint: MIC ; value: >100 µg/mL
CCCCCCCCCOC[N+](C)(C)CCCCCCCC ; strain or isolate: ATCC 6538 ; endpoint: MBC ; value: 2.86 µM